Measured values taken from PubChem BioAssay AID328 (DTP/NCI, 2004).
Toxic doses and inconclusive results are not listed. Rule for the calls: active = survival T/C of 150% or more; inactive = T/C below 125% in these data.

Tested on: BDF1 mice, P388 leukemia ip, median survival T/C
Test: NCI In Vivo Anticancer Drug Screen. Data for tumor model P388 Leukemia (intraperitoneal) in B6D2F1 (BDF1) mice
Details: endpoint: median survival time, schedule: Q01DX009 (ip), vehicle: saline with Tween-80, higher = longer survival
Procedure, shortened: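 Antitumour effect was judged in vivo: survival in drug-treated mice, normalised to that of vehicle-dosed controls, gives the reported T/C.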

Measured: T/C

[Fe].[c-]1[c-][c-][cH-][c-]1.[c-]1[c-][c-][cH-][c-]1
inactive: dose: 25.0 mg/kg/injection 90 % of control | dose: 50.0 mg/kg/injection 106 % of control | dose: 100.0 mg/kg/injection 100 % of control
